This data set deals with the molecule itself.

B1: HeV PNT3 wt (domain or fragment)
chain: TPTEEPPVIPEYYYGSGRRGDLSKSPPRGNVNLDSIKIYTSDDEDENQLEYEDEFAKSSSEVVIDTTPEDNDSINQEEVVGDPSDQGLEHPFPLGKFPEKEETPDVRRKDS
Turning to B1, the binding result was “binds”.

B2: NiV PNT3 (domain or fragment)
chain: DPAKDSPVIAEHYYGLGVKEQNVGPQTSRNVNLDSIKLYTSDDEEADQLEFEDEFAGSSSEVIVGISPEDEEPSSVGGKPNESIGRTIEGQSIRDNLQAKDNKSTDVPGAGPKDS
Regarding B2, the binding result is recorded as “binds”.

(Values after article PMC9820236, “Molecular Determinants of Fibrillation in a Viral Amyloidogenic Domain from Combined Biochemical and Biophysical Studies” (International Journal of Molecular Sciences, 2022).)
